Pooled drug test results. Numbers come from NIAID ChemDB, via PubChem.

Shared fields: tests on isolated targets; organism: Hepatitis C virus; protein: NS3 protease; measure: Ki

Lines come from different laboratories, so protocols vary. Two numbers with a dash give a range or band.

compound,value
CCC[C@H](NC(=O)[C@@H]1C[C@@H](Oc2cc(-c3ccccc3)nc3cc(OC)ccc23)C[C@H]1C(=O)N[C@H](C(=O)N[C@H](C(=O)NC)C1CCCCC1)C(C)C)C(=O)O,6.6 µM
CC[C@@H](C=O)NC(=O)[C@@H]1C[C@@H](OCc2ccc3nc(C(F)(F)F)ccc3c2Cl)CN1C(=O)[C@@H](NC(=O)[C@@H](NC(=O)c1cnccn1)C(C)C)C(C)C,1–100 µM
CC[C@@H](C)[C@H](NC(=O)[C@H](CC(C)C)NC(=O)[C@@H](CCC(=O)O)NC(=O)[C@H](CC(=O)O)NOC(=O)CCC(=O)O)C(=O)N[C@@H](CC1CCCCC1)C(=O)NC1(c2nn[nH]n2)CC1,0.19 µM
CCC[C@H](NC(=O)[C@@H]1C[C@@H](Oc2cc(-c3ccccc3)nc3cc(OC)ccc23)C[C@H]1C(=O)N[C@H](C(=O)N[C@H](C(=O)OC)C1CCCCC1)C(C)C)C(=O)O,2.3 µM
C/C=C/C(=O)C(=O)[C@H](CC)NC(=O)[C@H](CC1CCCCC1)NC(=O)[C@@H](NC(=O)[C@H](CC(C)C)NC(=O)[C@@H](CCC(=O)O)NC(=O)[C@H](CC(=O)O)NC(C)=O)[C@H](C)CC,17 µM
CC[C@@H](C=O)NC(=O)[C@@H]1C[C@@H](OCc2ccccc2)CN1C(=O)[C@@H](NC(=O)c1ccccc1Br)C(C)C,1–100 µM
CC[C@@H](C)[C@H](NC(=O)[C@H](CC(C)C)NC(=O)[C@@H](CCC(=O)O)NC(=O)[C@H](CC(=O)O)NOC(=O)CCC(=O)O)C(=O)N[C@@H](CC1CCCCC1)C(=O)NC1(C(=O)C(F)(F)C(F)(F)F)CC1,1.8 µM
CC(C)(C)NC(=O)N[C@H](C(=O)C1CC2C([C@H]1C(=O)N[C@@H](CC1CCC1)C(=O)C(N)=O)C2(C)C)C(C)(C)C,0.023 µM
CC[C@@H](C=O)NC(=O)[C@@H]1C[C@@H](OCc2ccccc2)CN1C(=O)[C@@H](NC(=O)Nc1ccccc1)C(C)C,1–100 µM
CCC[C@H](NC(=O)[C@H](CC1CCCCC1)NC(=O)[C@@H](NC(=O)[C@H](CC(C)C)NC(=O)[C@@H](CCC(=O)O)NC(=O)[C@H](CC(=O)O)NOC(=O)CCC(=O)O)[C@H](C)CC)C(=O)O,0.22 µM
CCC(NC(=O)[C@@H]1[C@H]2CC=C[C@H]2CN1C(=O)[C@@H](NC(=O)[C@@H](NC(=O)c1cnccn1)C(C)C)C(C)C)C(=O)C(=O)N[C@@H](Cc1ccccc1)C(=O)O,0.09 µM
CC(C)[C@H](NC(=O)[C@H](CCC(=O)O)NC(=O)[C@@H](N)CC(=O)O)C(=O)N[C@H](C(=O)N1CCC[C@H]1C(=O)NC1(B2O[C@@H]3CC4CC(C4(C)C)[C@]3(C)O2)CCCCC1)C(C)C,>100 µM
CC[C@H](NC(=O)[C@H](CC(C)C)NC(=O)[C@@H](NC(=O)[C@@H](NC(=O)[C@H](CC(=O)O)NC(=O)[C@@H](N)CCC(=O)O)C(C)C)C(C)C)C(=O)c1ncc(-c2c(Cl)cccc2Cl)o1,>100 µM
CCC[C@H](NC(=O)[C@@H]1C[C@@H](Oc2cc(-c3ccccc3)nc3cc(OC)ccc23)C[C@H]1C(=O)N[C@H](C(=O)N[C@H](C(=O)OC)C1CCCCC1)C(C)(C)C)C(=O)O,1.2 µM
CC[C@@H](C=O)NC(=O)[C@@H]1C[C@@H](NC(=O)OCc2ccccc2)CN1C(=O)[C@@H](NC(=O)[C@@H](NC(=O)c1cnccn1)C(C)C)C(C)C,>100 µM
C=C[C@@H]1C[C@]1(NC(=O)[C@@H]1C[C@@H](Oc2cc(-c3ccccc3)nc3cc(OC)ccc23)C[C@H]1C(=O)N[C@H](C(=O)NC1CCCC1)C(C)(C)C)C(=O)O,2.7 µM
CC[C@H](NC(=O)[C@H](CC1CCCCC1)NC(=O)[C@@H](NC(=O)[C@H](CC(C)C)NC(=O)[C@@H](CCC(=O)O)NC(=O)[C@H](CC(=O)O)NC(C)=O)[C@H](C)CC)C(=O)CCCCCC(C)C,0.46 µM
CC[C@@H](C=O)NC(=O)[C@@H]1C[C@@H](OCc2ccccc2-c2ccccc2)CN1C(=O)[C@@H](NC(=O)[C@@H](NC(=O)c1cnccn1)C(C)C)C(C)C,1–100 µM
C=C[C@@H]1C[C@]1(NC(=O)[C@@H]1C[C@@H](Oc2cc(-c3ccccc3)nc3cc(OC)ccc23)C[C@H]1C(=O)N[C@H](C(=O)NC(C)(C)C)C(C)(C)C)C(=O)O,6.9 µM
CC[C@@H](C=O)NC(=O)[C@@H]1C[C@@H](OC(=O)Nc2c(Cl)cccc2Cl)CN1C(=O)[C@@H](NC(=O)[C@@H](NC(=O)c1cnccn1)C(C)C)C(C)C,1–100 µM
C=C[C@@H]1C[C@]1(NC(=O)[C@@H]1C[C@@H](Oc2cc(-c3ccccc3)nc3cc(OC)ccc23)C[C@H]1C(=O)N[C@H](C(=O)N(C)[C@H](C(=O)NC)C1CCCCC1)C(C)(C)C)C(=O)O,>10 µM